Data reported in patent US20250042889A1, “3CLPRO PROTEASE INHIBITOR” (SHANGHAI QILU PHARMACEUTICAL RESEARCH AND DEVELOPMENT …, priority 2021, published 2025).

Target: SARS-COV-2 3CLpro/Mpro protease (Severe acute respiratory syndrome coronavirus 2 (2019-nCoV) (SARS-CoV-2), UniProt P0DTD1)
Experiment: Inhibitory effect on SARS-COV-2 3CLpro/Mpro protease by fluorescence resonance energy transfer
Details: read-out: IC50 (nM), Inhibition on SARS-CoV-2 3CLpro/Mpro protease, activity intervals A-D
Protocol: Test Example 1: Evaluation of the Inhibitory Effect of the Compound of the Application on SARS-COV-2 3CL^pro/M^pro Target
In this experiment, the activity of SARS-COV-2 3CL^pro/M^pro protease was detected by fluorescence resonance energy transfer, and the half inhibitory concentration IC50 of the compound on SARS-COV-2 3CL^pro/M^pro protease was obtained.
Novel coronavirus M^pro/3CL^pro inhibitor screening kit (P0315M), purchased from Beyotime Biotechnology:
• 1) The enzyme solution was prepared with reaction buffer, 49.5 μL enzyme solution was added into each well, and 49.5 μL reaction buffer was added into Min-well. • 2) The IC50 of the compound was detected, and the final concentration of the test was starting from 10 μM, 3-fold dilution, 10 concentrations, and each concentration was set up for multiple well testing. […]

Structure (SMILES) | IC50
O=C(c1cc([N+](=O)[O-])cc(Cl)c1N[C@@H]1CCCN(C(=O)c2cncc3ccccc23)C1)N1CCCCC1 | 10 to 50 nM
CNc1cncc(C(=O)N2CC(Nc3c(C(=O)C4CC5C(C4)C5(C)C)cc(Br)cc3[N+](=O)[O-])C(F)(F)C2)c1 (centres unmarked) | 10 to 50 nM
